Laboratory results: PubChem BioAssay AID1259414 (Drosophila RNAi Screening Center, 2018)
In all, the deposit lists about 24,000 reagents; below is a random part of those with a known target gene and a result. Of all reagents, about 1,210 (5%) are marked active. 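Inactive calls also include excluded dsRNAs with several or no targets, genes unexpressed in JW18, and well A1, regardless of score.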 Names joined by + are all predicted targets of the reagent. Reagent sequences are not shown.

- Test: 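Genome-wide screen for host control of endosymbiont load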 (primary screen)
- Cell system: Drosophila JW18 cells infected with Wolbachia
- Reagents: long dsRNA against Drosophila genes, 0.25 µg dsRNA per well of a 384-well plate
- Duration: 5 days
- Challenge: cells persistently infected with Wolbachia before knock-down; no added drug
- Detection: 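Imaged fluorescence in situ signal for Wolbachia 23S rRNA per DAPI-counted host cell, given as a robust z-score within each plate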
- Reading the numbers: Wolbachia per cell robust z: higher = more Wolbachia per host cell than the plate typical
- Hit rule: 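Hit when robust z is 1.5 or more, or -1.5 or less, in at least two of three replicates; excludes dsRNAs with several or no targets, genes not expressed in JW18 and well A1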

gene | amplicon | Wolbachia per cell robust z, rep 1 | Wolbachia per cell robust z, rep 2 | Wolbachia per cell robust z, rep 3 | activity call
Oatp58Db (Organic anion transporting polypeptide 58Db) | DRSC04364 | -0.727 | -0.0723 | -0.553 | inactive
Oatp58Db (Organic anion transporting polypeptide 58Db) | DRSC24248 | 0.295 | -0.0456 | -1.63 | inactive
Oatp58Db (Organic anion transporting polypeptide 58Db) | DRSC39039 | -1.52 | -0.489 | -0.077 | inactive
CG9338 | DRSC03213 | -0.0325 | -0.339 | -0.0101 | inactive
CG9338 | DRSC24503 | -0.581 | -0.672 | 0.109 | inactive
CG33110 | DRSC16137 | -5.82 | -1.3 | -3.89 | inactive
CG33110 | DRSC27221 | -0.256 | -1.69 | -0.525 | inactive
CG8785 | DRSC07266 | 0.395 | -0.145 | 0.591 | inactive
superdeath (Suppressor of ER stress-induced death) | DRSC14868 | -1.53 | 0.232 | 0.419 | inactive
superdeath (Suppressor of ER stress-induced death) | DRSC24146 | 0.486 | -0.0752 | -0.0353 | inactive
dpr17 (defective proboscis extension response 17) | DRSC12885 | 0.937 | 0.434 | -0.0798 | inactive
dpr17 (defective proboscis extension response 17) | DRSC14958 | 0.452 | 1.2 | -0.0184 | inactive
Arc1 (Activity-regulated cytoskeleton associated protein 1) | DRSC06159 | 0.0662 | 1.75 | 1.29 | inactive
Arc1 (Activity-regulated cytoskeleton associated protein 1) | DRSC28128 | -4.05 | 0.11 | 0.677 | inactive

Next part (2 carried over from the part before).
gene | amplicon | Wolbachia per cell robust z, rep 1 | Wolbachia per cell robust z, rep 2 | Wolbachia per cell robust z, rep 3 | activity call
Arc1 (Activity-regulated cytoskeleton associated protein 1) | DRSC06159 | 0.0662 | 1.75 | 1.29 | inactive
Arc1 (Activity-regulated cytoskeleton associated protein 1) | DRSC28128 | -4.05 | 0.11 | 0.677 | inactive
CG10469 + CG10467 | DRSC28645 | 0.637 | -1.03 | -1.17 | inactive
CG1943 | DRSC12576 | 0.122 | 0.733 | -3.05 | inactive
CG9147 | DRSC03147 | 0.0685 | 0.252 | -0.434 | inactive
CG9147 | DRSC27889 | -0.277 | -1.61 | -0.447 | inactive
Mgtor (Megator) | DRSC05958 | -0.636 | 0.304 | 0.924 | inactive
TrissinR (Trissin receptor) | DRSC02334 | -4.36 | -0.0794 | 0.606 | inactive
TrissinR (Trissin receptor) | DRSC02335 | -0.302 | -0.451 | 1.2 | inactive
TrissinR (Trissin receptor) | DRSC02336 | -8.05 | -0.686 | -0.335 | inactive
TrissinR (Trissin receptor) | DRSC25084 | 0.401 | -0.354 | 1.09 | inactive
TrissinR (Trissin receptor) | DRSC26283 | 0.401 | 0.0908 | -0.603 | inactive
Obp50c + Obp50b | DRSC05482 | -9.81 | 0.222 | 1.05 | inactive
CG31445 | DRSC14443 | 0.482 | -0.273 | 0.639 | inactive
CG31445 | DRSC28642 | 0.912 | 0.282 | 0.674 | inactive
CG17217 | DRSC02592 | 1.27 | 0.794 | 0.668 | inactive
